Pooled drug test results. Numbers come from NIAID ChemDB, via PubChem.

All rows: tests on isolated targets; species: HIV-1; protein: Reverse transcriptase; measure: fold resistance

Fold resistance: result on the changed form divided by that on wild type.

Nc1ccn([C@@H]2CS[C@H](COP(=O)(O)OP(=O)(O)OP(=O)(O)O)O2)c(=O)n1 ; changes: RT-A62V V75I F77L F116Y Q151M ; read by: nucleotide incorporation / radiometric ; value: 1.85
COc1cc(CSc2nc(Cc3c(F)cccc3F)c(C)c(=O)[nH]2)cc(OC)c1 ; changes: RT-181I ; read by: nucleotide incorporation / radiometric ; value: ~1
c1ccc(C2SCc3nc4ccccc4n32)cc1 ; changes: RT-H221Y ; value: ~1.5
O=C1c2cccnc2C(=O)N1CCNC(=S)Nc1ccc(Br)cn1 ; changes: RT-K103N ; read by: nucleotide incorporation ; value: 0.789
Cc1occc1C(=S)Nc1ccc(Cl)c(/C=N/OC(C)(C)C)c1 ; changes: RT-K103N ; value: >18.18
CCOCn1c(Cc2ccccc2)c(C(C)C)c(=O)[nH]c1=O ; changes: RT-P225H ; read by: nucleotide incorporation / radiometric ; value: 7.3
Cc1c(Cc2c(Cl)cccc2Cl)nc(SCc2ccc(C#N)cc2)[nH]c1=O ; changes: RT-K103N ; read by: nucleotide incorporation / radiometric ; value: >3.88
CCC1(c2cccc(Cl)c2)Oc2ccccc2-n2cccc2C1=O ; changes: RT-Y181I ; read by: nucleotide incorporation / radiometric ; value: 22.2
Cc1c(Cc2c(F)cccc2F)nc(SCc2ccc([N+](=O)[O-])cc2)[nH]c1=O ; changes: RT-K103N ; read by: nucleotide incorporation / radiometric ; value: ~1
O=C1c2ccncc2C(=O)N1CCNC(=S)Nc1ccc(Br)cn1 ; changes: RT-Y181I ; read by: nucleotide incorporation ; value: 14.3
CCOc1cccc(C2(CC)Oc3ccccc3-n3cccc3C2=O)c1 ; changes: RT-K103N ; read by: nucleotide incorporation / radiometric ; value: 4.6
O=C(O)Cn1cnc2c(=O)[nH]c(NC(=O)OCc3ccccc3)nc21 ; changes: K103N ; read by: nucleotide incorporation / radiometric ; strain: NNRTI-resistant ; value: 8.2
O=c1c2cccn2c2ccccc2n1CCNC(=S)Nc1ccc(Cl)cn1 ; changes: RT-L100I ; read by: nucleotide incorporation ; value: 9
Nc1nc2c(ncn2[C@H]2CC[C@@H](COP(=O)(O)OP(=O)(O)OP(=O)(O)O)O2)c(=O)[nH]1 ; changes: RT-V106A P225H ; read by: nucleotide incorporation / radiometric ; value: 0.75
CNc1ccc(Cl)cc1S(=O)(=O)c1ccccc1[N+](=O)[O-] ; changes: RT-L100I ; value: 0.455
CCC1(c2cccc(I)c2)Oc2ccccc2-n2cccc2C1=O ; changes: RT-L100I ; read by: nucleotide incorporation / radiometric ; value: >200
Nc1ccn([C@H]2CC[C@@H](COP(=O)(O)OP(=O)(O)OP(=O)(O)O)O2)c(=O)n1 ; changes: RT-A62V V75I F77L F116Y Q151M ; read by: nucleotide incorporation / radiometric ; value: 5.19
CCC1(c2ccc(CNc3cccc(F)c3)cc2)Oc2ccccc2-n2cccc2C1=O ; changes: RT-L100I ; read by: nucleotide incorporation / radiometric ; value: 6.25
COc1ccc(/C=C/NC(=O)Nc2ccc(Cl)cn2)cc1OC ; changes: RT-Y188L ; read by: nucleotide incorporation ; value: 2.86
CCN1c2ncc(CCOc3ccc(CC(=O)O)c4ccccc34)cc2C(=O)N(C)c2ccc(F)nc21 ; changes: RT-Y188L ; read by: nucleotide incorporation / radiometric ; value: >10
CCC1(c2cccc(COc3ccccc3)c2)Oc2ccccc2-n2cccc2C1=O ; changes: RT-K103N ; read by: nucleotide incorporation / radiometric ; value: 6.125
Cc1cc(S(N)(=O)=O)ccc1NC(=O)COc1ccc(Cl)cc1C(=O)c1cc(Cl)cc(C#N)c1 ; changes: RT-V106A ; read by: fluorescence ; value: 2.22
CC(C)=CCOc1cc(NC(=S)c2ccoc2C)ccc1Cl ; changes: RT-V106A P225H ; read by: nucleotide incorporation / radiometric ; value: 134
O=c1cnc2ccccc2n1CCNC(=S)Nc1ccc(Br)cn1 ; changes: RT-V106A ; read by: nucleotide incorporation ; value: 3.1
Cc1cn([C@H]2C=C[C@@H](COP(=O)(O)OP(=O)(O)OP(=O)(O)O)O2)c(=O)[nH]c1=O ; changes: RT-Q161L ; value: 32
Nc1nc2c(ncn2[C@H]2C[C@H](O)[C@@H](COP(=O)(O)OP(=O)(O)OP(=O)(O)O)O2)c(=O)[nH]1 ; changes: RT-L74V ; read by: nucleotide incorporation / radiometric ; value: 0.57
Cc1cc2c(cc1C)n1cccc1c(=O)n2CCNC(=S)Nc1ccc(Br)cn1 ; changes: RT-L100I ; read by: nucleotide incorporation ; value: 3.2
COc1ccc(CSc2nc(Cc3ccc(F)cc3)c(C)c(=O)[nH]2)cc1 ; changes: RT-181I ; read by: nucleotide incorporation / radiometric ; value: ~1
Nc1ncnc2c1ncn2CCOCP(=O)(O)OP(=O)(O)OP(=O)(O)O ; changes: RT-M184V ; read by: nucleotide incorporation / radiometric ; value: 0.57
CCC1(c2ccc(COc3cccnc3)cc2)Oc2ccccc2-n2cccc2C1=O ; changes: RT-L100I ; read by: nucleotide incorporation / radiometric ; value: 0.75
CCN1c2ncc(CCOc3ccc(CC(C)C(=O)O)c4ccccc34)cc2C(=O)Nc2c(C)cc(Cl)nc21 ; changes: RT-Y188L ; read by: nucleotide incorporation / radiometric ; value: >10
CCC1(c2ccc(CNc3ccccc3)cc2)Oc2ccccc2-n2cccc2C1=O ; changes: RT-K103N ; read by: nucleotide incorporation / radiometric ; value: 27.7
CCN1c2ncc(CCOc3ccc(CCC(=O)NN)c4ccccc34)cc2C(=O)N(C)c2cccnc21 ; changes: RT-K103N Y181C ; read by: nucleotide incorporation / radiometric ; value: 1–10
Cc1c(Cc2c(Cl)cccc2Cl)nc(SCc2ccc(F)cc2)[nH]c1=O ; changes: RT-K103N ; read by: nucleotide incorporation / radiometric ; value: >25
C=C(C)CCOCc1ccc(C2(CC)Oc3ccccc3-n3cccc3C2=O)cc1 ; changes: RT-V106A ; read by: nucleotide incorporation / radiometric ; value: 1.28
Cc1cn([C@H]2CC[C@@H](COP(=O)(O)OP(=O)(O)OP(=O)(O)O)O2)c(=O)[nH]c1=O ; changes: RT-I132M ; read by: nucleotide incorporation / radiometric ; value: 0.6
CCN1c2ncc(CCOc3ccc(/C=C(\C)C(=O)O)c4ccccc34)cc2C(=O)Nc2c(C)cc(F)nc21 ; changes: RT-V106A ; read by: nucleotide incorporation / radiometric ; value: 1–10
C/C=C/CSc1cc(NC(=S)c2ccsc2C)ccc1Cl ; changes: RT-V106A ; value: 1.35
O=C(O)Cn1cnc2c(Oc3ccccc3[N+](=O)[O-])nc(NC(=O)OCc3ccccc3)nc21 ; changes: K103N ; read by: nucleotide incorporation / radiometric ; strain: NNRTI-resistant ; value: 53
CC(C)=CCN1Cc2cc(Cl)cc3[nH]c(=O)n(c23)C[C@@H]1C ; changes: RT-V106A P225H ; read by: nucleotide incorporation / radiometric ; value: 36
CC(C)=CCOc1cc(NC(=S)c2ccoc2C)ccc1Cl ; changes: RT-V106A ; value: 1

Rows are shuffled and stem from different studies. Two numbers with a dash give a range or band.